pIC50: −log10 of the molar value. Values joined by “and” are separate entries in the source; they are usually repeats but may differ in a detail not shown here. Equal values may be shown once. Bounds are passed on as bounds.

The subject of one data set is SHIV162P3. Description: Vaginal challenge of macaques with SHIV162P3. The note with it: for protection: 2 ml vaginally 1 h before ~10 AID50 SHIV162P3 in 50% human seminal plasma, 6 animals. In kind it is in vivo, cynomolgus macaques (Macaca fascicularis). As for the experimental part:
SHIV162P3 was obtained from the NIH AIDS Research and Reference Reagent Program[57][58] and mixed with 50% human seminal plasma. This mixture was used at 10 animal infectious doses 50% (AID50) to vaginally infect 18 naïve female cynomolgus macaques, which had been pre-treated with Depo-Provera 4–5 weeks before the challenge. One hour before challenge, six macaques received an intravaginal dose of 2 mL of mCD4.1-PS1 containing HEC gel at 144 μM. Six other macaques received the same dose of HEC gel containing 600 μM of mCD4.1-PS1 and the other six macaques were dosed with HEC gel without mCD4.1-PS1 (placebo group). Blood was collected at different time points after challenge to measure plasma viremia by a quantitative RT-PCR assay using primers amplifying the gag regions of SIVmac251. The detection limit of this assay is 60 RNA copies/mL and the quantification limit is 111 RNA copies/mL. For animals with undetectable viremia, lymph nodes were sampled on week 9 after challenge to measure the SHIV DNA copy numbers by quantitative PCR. Detection limit for this assay is 10 copies per million of cells. Anti-SHIV binding antibodies were measured in serum using standard commercial ELISA for the detection of HIV-1 and HIV-2 antibodies (Genscreen, Bio-Rad). Animals were considered negative if tested negative for plasma viremia and antibodies over the course of the study (11 weeks of follow-up after challenge) and negative for proviral DNA in lymph nodes.

In the next data set the test system is TZM-bl cells. Kind of data set: WST-1 cytotoxicity assay. Format: cell-based. The note with it: Table 1, 50% cytotoxic concentration, WST-1, 48 h. The method in brief:
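TZM-bl cells (10^4 cells/well) exposed to serially diluted compound for 48 h. Viability by WST-1 reduction, absorbance at 450 nm, relative to untreated cultures; CC50 from non-linear regression.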
Background: Formazan colour is commonly taken as a measure of viable cells.

The next data set relates to HIV-1 MP568 (CRF02). Format: cell-based. The note with it: Table 1; AG-R5; TZM-bl cells, 48 h, luciferase; means of two experiments.
The next data set has as its system HIV-1 VI824. In kind it is cell-based. To be noted: Table 1; D-R5; TZM-bl cells, 48 h, luciferase; means of two experiments.
Another data set relates to HIV-1 Bal. Format: cell-based. The note with it: Table 1; B-R5; TZM-bl cells, 48 h, luciferase; means of two experiments. The method in brief: (§1)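 Luciferase readout, 48 h post-infection: TZM-bl reporter cells plus 30 μg/mL DEAE dextran, mCD4 conjugates in 10-fold dilution series, virus inoculum 50–200 TCID50 depending on isolate. Signal normalised to untreated infected wells; IC50 from non-linear fit, triplicates.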

The subject of another data set is HIV-1 pREJO.c/2864 cl2. In kind it is cell-based. To be noted: Table 1; T/F B-R5; TZM-bl cells, 48 h, luciferase; means of two experiments.
Another data set concerns HIV-1 VI829. In kind it is cell-based. The note with it: Table 1; C-R5; TZM-bl cells, 48 h, luciferase; means of two experiments. In a few lines: as §1
The subject of another data set is HIV-1 p246F10. Format: cell-based. To be noted: Table 1; T/F C-R5; TZM-bl cells, 48 h, luciferase; means of two experiments.
Another data set deals with HIV-1 pWITO.c/2474. In kind it is cell-based. The note with it: Table 1; T/F B-R5; TZM-bl cells, 48 h, luciferase; means of two experiments.
The subject of the next data set is HIV-1 MN. Format: cell-based. To be noted: Table 1; B-X4; TZM-bl cells, 48 h, luciferase; means of two experiments. In a few lines: as §1
A further data set deals with HIV-1 SF162. In kind it is cell-based. The note with it: Table 1; B-R5; TZM-bl cells, 48 h, luciferase; means of two experiments. The method in brief: as §1
The next data set concerns HIV-1 Ca10-3 (CRF01). In kind it is cell-based. To be noted: Table 1; AE-X4; TZM-bl cells, 48 h, luciferase; means of two experiments.
Another data set has as its system HIV-1 pZM247Fv2. In kind it is cell-based. The note with it: Table 1; T/F C-R5; TZM-bl cells, 48 h, luciferase; means of two experiments.
In another data set the test system is HIV-1 VI1888 (CRF01). In kind it is cell-based. To be noted: Table 1; AE-R5; TZM-bl cells, 48 h, luciferase; means of two experiments.
The subject of another data set is HIV-1 VI820. Format: cell-based. The note with it: Table 1; A-X4R5; TZM-bl cells, 48 h, luciferase; means of two experiments. In a few lines: as §1
A further data set has as its system HIV-1 pTHRO.c/2626. In kind it is cell-based. The note with it: Table 1; T/F B-R5; TZM-bl cells, 48 h, luciferase; means of two experiments.
The next data set has as its system HIV-1 IIIB. In kind it is cell-based. To be noted: Table 1; B-X4; TZM-bl cells, 48 h, luciferase; means of two experiments. The method in brief:
as §1

Broadly, the CC50 is the concentration at which the toxic effect on the cells reaches its halfway point. Low values mean harm at low concentration, high ones better tolerance by the cells. Usually pIC50 stands for the IC50 on a negative log10 scale, so that one unit is a factor of ten. Read a high pIC50 as a low IC50. In the case of `CC(C)C[C@@H]1NC(=O)CNC(=O)[C@H](CC(C)C)NC(=O)[C@H](CO)NC(=O)[C@H](CO)NC(=O)[C@@H]2CSSC[C@@H](C(=O)N[C@H](C(N)=O)C(C)C)NC(=O)[C@H](C)NC(=O)[C@@H]3CSSC[C@H](NC(=O)[C@H](CCCCNC(=O)CCOCCOCCNC(=O)CCN4C(=O)CC(SCCC(=O)NCCCC(=O)N[C@@H](CO)C(=O)N[C@@H](Cc5ccc(OS(=O)(=O)O)cc5)C(=O)N[C@@H](CC(=O)O)C(=O)N[C@@H](Cc5ccc(OS(=O)(=O)O)cc5)C(=O)N[C@@H](CO)C(=O)N[C@@H](Cc5ccc(OS(=O)(=O)O)cc5)C(=O)N[C@@H](CC(=O)O)C(=O)N[C@@H](Cc5ccc(OS(=O)(=O)O)cc5)C(=O)N[C@@H](CO)C(=O)N[C@@H](Cc5ccc(OS(=O)(=O)O)cc5)C(=O)N[C@@H](CC(=O)O)C(=O)N[C@@H](Cc5ccc(OS(=O)(=O)O)cc5)C(=O)N[C@@H](CO)C(=O)O)C4=O)NC(=O)[C@H](Cc4c[nH]cn4)NC(=O)[C@H](CC(C)C)NC(=O)[C@H](CC(N)=O)NC(=O)CCSSC[C@H](NC(=O)[C@H](CCCNC(=N)N)NC(=O)CNC(=O)[C@H](CC(C)C)NC1=O)C(=O)N[C@@H](C)C(=O)NCC(=O)N[C@@H](CO)C(=O)N[C@@H](Cc1ccc(-c4ccccc4)cc1)C(=O)N3)C(=O)N[C@@H](CCC(N)=O)C(=O)N[C@@H](CC(C)C)C(=O)N[C@@H](CCCNC(=N)N)C(=O)N2` (some centres unmarked) [mCD4.1-PS1], the “animals protected (SHIV RNA negative and seronegative)” value in the data set with SHIV162P3 (HEC gel at 144 μM, 2 ml vaginally 1 h before challenge) was 3 out of 6 and 3/6. The protection with SHIV162P3 (HEC gel at 144 μM, 11 weeks follow-up) worked out at 50%; in the data set with SHIV162P3 (HEC gel at 600 μM, Fisher exact test p = 0.0152 vs placebo) it was 83%. The animals protected in the data set on SHIV162P3 (HEC gel at 600 μM, 2 ml vaginally 1 h before challenge) is 5/6. In the data set on TZM-bl cells, the 50% cytotoxic concentration (CC50) was over 37500 nM. Also, the negative-log IC50 (pIC50) with HIV-1 MP568 (CRF02) is 6.51; with HIV-1 VI824 it was 7.40; with HIV-1 Bal, 9.27; in the data set on HIV-1 pREJO.c/2864 cl2, 9.18; in the data set on HIV-1 VI829, 7.80; with HIV-1 p246F10, 6.14. In addition, the negative-log IC50 (pIC50) in the data set with HIV-1 pWITO.c/2474 was 8.16; in the data set with HIV-1 MN, 10.05; in the data set with HIV-1 SF162, 9.96; in the data set on HIV-1 Ca10-3 (CRF01), 9.24; with HIV-1 pZM247Fv2, 5.43; with HIV-1 VI1888 (CRF01), 5.96. Further, the pIC50 in the data set on HIV-1 VI820 is 7.60; in the data set with HIV-1 pTHRO.c/2626, 7.04; in the data set on HIV-1 IIIB, 10.89.

Values taken from PMC5056392, “CD4-mimetic sulfopeptide conjugates display sub-nanomolar anti-HIV-1 activity and protect macaques against a SHIV162P3 vaginal challenge” (Scientific Reports, 2016).
